Reference: patent US3997543A (priority 1974, dated 1976)

Test system: guinea pig ileum
Assay: ACh-like (muscarinic) activity on isolated guinea pig ileum
Assay type: cell-based
Conditions: relative to acetylcholine = 1

Structure (SMILES): CC(=O)OC1C[N+]2(C)CCC1CC2 (racemic)
- EPMR (Equipotent molar ratio): > 1000
